PubChem BioAssay AID504761 | Drosophila RNAi Screening Center, 2011
The screen tested about 22,000 reagents; shown is an unselected part of those with a known target gene and a result. Of all reagents, 116 (0.52%) were called active. 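Calls depend on retest data that are not deposited; infection was ranked per plate without normalising between plates; the unit of the infection score is not given.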 Raw values are not corrected between plates. The numbers tell different reagents against one gene apart. Not all columns of the deposit are shown. Not stated in the record: the amount of reagent, the time to read-out.

- Test: 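Fly genes whose silencing reduces dengue virus type 2 infection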 (primary screen)
- Cell system: D.Mel-2 cells from Drosophila
- Reagent: long dsRNA against Drosophila genes
- Treatment: infection with dengue virus type 2; dose and infection time not stated
- Read-out: 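Per well on two replicate plates, imaging gave the percent of cells positive for viral envelope protein, ranked by infection, and a nuclear count of cells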
- Reading the numbers: infection score: higher = more virus-infected cells; cell count: higher = more cells in the well
- Hit rule: 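Low infection ranks in the two replicates (chance level up to 0.065) followed by a retest with a 1.5-fold or larger significant decrease, p below 0.05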
- Calls: active = confirmed: knock-down lowers infection; inactive = not picked or not confirmed

rictor (GeneID 32919): infection score, replicate 1 = 1.04; cell count, replicate 1 = 6142; Outcome = inactive
CG12986 (GeneID 32759): infection score, replicate 1 = 2.25; cell count, replicate 1 = 6658; Outcome = inactive
CG13998 (GeneID 50423): infection score, replicate 1 = 10.9; cell count, replicate 1 = 5429; Outcome = inactive
stops (GeneID 43683) #1: infection score, replicate 1 = 5.87; cell count, replicate 1 = 6252; Outcome = inactive
stops (GeneID 43683) #2: infection score, replicate 1 = 1.73; cell count, replicate 1 = 6018; Outcome = inactive
stops (GeneID 43683) #3: infection score, replicate 1 = 5.09; cell count, replicate 1 = 6509; Outcome = inactive
CG14591 (GeneID 35531): infection score, replicate 1 = 11.1; cell count, replicate 1 = 6308; Outcome = inactive
peng (GeneID 33112) #1: infection score, replicate 1 = 11.2; cell count, replicate 1 = 6148; Outcome = inactive
peng (GeneID 33112) #2: cell count, replicate 1 = 323; Outcome = inactive

2 entries from above in another layout:
| gene knocked down | reagent no. | infection score, replicate 1 | cell count, replicate 1 | Outcome |
| --- | --- | --- | --- | --- |
| CG14591 (GeneID 35531) | 1 | 11.1 | 6308 | inactive |
| peng (GeneID 33112) | 1 | 11.2 | 6148 | inactive |

The listing continues:
mdu (GeneID 32201) #1: infection score, replicate 1 = 0.98; cell count, replicate 1 = 6223; Outcome = inactive
mdu (GeneID 32201) #2: infection score, replicate 1 = 4.84; cell count, replicate 1 = 2519; Outcome = inactive
Nt5c (GeneID 35984) #1: infection score, replicate 1 = 30.8; cell count, replicate 1 = 3990; Outcome = inactive
Nt5c (GeneID 35984) #2: infection score, replicate 1 = 13.7; cell count, replicate 1 = 6560; Outcome = inactive
CG5084 (GeneID 37051) #1: infection score, replicate 1 = 24.1; cell count, replicate 1 = 5079; Outcome = inactive
CG5084 (GeneID 37051) #2: infection score, replicate 1 = 19.8; cell count, replicate 1 = 5630; Outcome = inactive
Pka-C3 (GeneID 39733) #1: infection score, replicate 1 = 5.14; cell count, replicate 1 = 5719; Outcome = inactive
Pka-C3 (GeneID 39733) #2: infection score, replicate 1 = 1.04; cell count, replicate 1 = 6073; Outcome = inactive
Pka-C3 (GeneID 39733) #3: infection score, replicate 1 = 3.59; cell count, replicate 1 = 5675; Outcome = inactive
CG13252 (GeneID 40289) #1: infection score, replicate 1 = 6.24; cell count, replicate 1 = 6567; Outcome = inactive
CG13252 (GeneID 40289) #2: infection score, replicate 1 = 4.2; cell count, replicate 1 = 6569; Outcome = inactive
CG17896 (GeneID 30995) #1: infection score, replicate 1 = 8.59; cell count, replicate 1 = 6905; Outcome = inactive
CG17896 (GeneID 30995) #2: infection score, replicate 1 = 6.9; cell count, replicate 1 = 3056; Outcome = inactive
